In publication PMC7239026:
Construct, isoform or probe ends are uncertain for at least one entry.

Tests used:
[1] = molecular target: rVicR (UniProt I6L8Z5); test: EMSA; conditions: poly d(I-C), poly-L-lysine, cold pepO competitor 200-fold used, 1X Binding Buffer ([…], pH 7.5), recombinant protein, label: 3' biotin, probe letters rebuilt from the primers and the genome
[2] = molecular target: rCovR (UniProt I6L8Z3); test: EMSA; conditions: poly d(I-C), poly-L-lysine, cold pepO competitor 200-fold used, 1X Binding Buffer ([…], pH 7.5), recombinant protein, label: 3' biotin, probe letters rebuilt from the primers and the genome

Q: Which results are given for “AGCTCCGCTTTATATTCCTGCTATTGTTTATCTTGGCAATAAAGTTTATGAATCTCTTCGTAAAAATTTCGATTTACCCTCAAATAAAGAAGAAGCCAAGAAAACGATAGCAGATATTAAGAATGATCAAAGGCAATTTACGGGAAACGTTATTAGAATTACAACACAAAAAGATTGGCTAAACAACATTGCTCGTAATTTAGGTGCAGTTTATTTAGGCAAAGAACATATTATTATCAATTCTGGGGGTCATGATTTGCAGGGTATTGTAAATGATATGAAGCAAGTTGCTAATGTGAAGGCATTGGTTAGTATCTAGCA (double strand) [pepO promoter fragment]”?
A: binding result [1]: binds; binding result [2]: binds
